Protein sequences, listed by entry. Tags and fused reporters are not part of them. Lines headed by an entry give the natural chain unless they say otherwise; changes in a name come on top.
UniProt P0C2T7: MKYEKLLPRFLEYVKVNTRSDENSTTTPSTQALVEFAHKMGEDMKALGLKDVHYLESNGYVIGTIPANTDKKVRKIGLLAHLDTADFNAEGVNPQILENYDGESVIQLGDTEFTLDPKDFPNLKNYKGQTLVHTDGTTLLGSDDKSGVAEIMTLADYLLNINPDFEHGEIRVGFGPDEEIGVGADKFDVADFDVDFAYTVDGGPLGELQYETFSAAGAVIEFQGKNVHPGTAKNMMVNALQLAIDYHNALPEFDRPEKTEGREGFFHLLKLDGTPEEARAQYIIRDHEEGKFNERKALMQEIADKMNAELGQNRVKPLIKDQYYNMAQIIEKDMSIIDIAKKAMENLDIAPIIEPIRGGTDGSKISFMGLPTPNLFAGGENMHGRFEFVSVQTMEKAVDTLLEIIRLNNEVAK

According to EP0440303A1 (PROBICOM RESEARCH B.V., priority 1990, dated 1991):

Target: tripeptidase of L.lactis subsp. cremoris Wg2 (Lactococcus lactis subsp. cremoris, UniProt P0C2T7)
Experiment: Effects of chemical agents on the peptidase activity (leu3 hydrolysis)
Format: biochemical
Settings: NEM 0.5 mM; cystine 0.05 mM; phenylarsine oxide 0.1 mM; DTT 1 mM; β-mercaptoethanol 0.4 mM; ferricyanide 3 mM after the reducing agents

## O=[As]c1ccccc1 (stereo not shown)
  effect on the enzyme activity (in words): had no effect on the enzyme activity
